Anti-infective test results gathered from many reports (values: NIAID ChemDB through PubChem).

Common to all: growth or infection tests; species: Herpes simplex virus 1; cells: VERO; endpoint: inhibition

"inactive" is the filed call at that dose; no cut-off is given.

smiles	strain	method	dose	result
Cc1cccc(NS(=O)(=O)c2ccc(Oc3ccc(S(=O)(=O)Nc4cccc(C)c4)cc3)cc2)c1	-	plaque count	5 µM	0%
O=C1CC(c2ccccc2)n2nc(-c3ccncc3)nc2N1	7401H	plaque count	50 µg/mL	17%
Nc1nc(=O)n([C@@H]2O[C@H](CO)[C@@H](O)[C@@H]2F)cc1I	F	virus yield	0.1 µM	93.7%
CCCc1nc2n(n1)C(c1ccc([N+](=O)[O-])cc1)CC(=O)N2	7401H	plaque count	50 µg/mL	17%
COc1ccc(NC(=O)Nc2ccc(Cl)cc2)cc1NC(=O)Nc1ccc(Cl)cc1	-	plaque count	30 µM	<50%
CCCCCCCCCCCCCCCCCC(=O)OCC(CO[C@@H]1O[C@H](CO)[C@@H](O)[C@H](O)[C@H]1O)OC(=O)CCCCCCCCCCCCCCCCC	KOS	plaque count	50 µg/mL	inactive
O=S(=O)(c1ccc(OCc2ccc(F)cc2)cc1)c1ccc(OCc2ccc(F)cc2)cc1	-	plaque count	30 µM	>50%
COc1ccc(C2CC(=O)Nc3nc(-c4ccc5ccccc5c4)nn32)cc1	7401H	plaque count	50 µg/mL	16%
CC/C=C/C/C=C/C/C=C/CCCCCCCC(=O)OCC(CO[C@@H]1O[C@H](CO)[C@H](O)[C@H](O)[C@H]1O)OC(=O)CCCCCCC/C=C\C/C=C\CCCCC	KOS	plaque count	50 µg/mL	100%
O=S(=O)(c1ccc(OCc2ccc(Cl)cc2)cc1)c1ccc(OCc2ccc(Cl)cc2)cc1	-	plaque count	5 µM	<50%
O=c1ccn([C@@H]2O[C@H](CO)[C@@H](O)[C@@H]2F)c(=O)[nH]1	F	virus yield	2.5 µM	93.8%
C/C=C/c1cn([C@@H]2O[C@H](CO)[C@@H](O)[C@@H]2O)c(=O)[nH]c1=O	TK-	plaque count	100 µM	<0%
O=S(=O)(c1ccc(OCc2ccc(Br)cc2)cc1)c1ccc(OCc2ccc(Br)cc2)cc1	-	plaque count	5 µM	<50%
CC/C=C/C/C=C/C/C=C/CCCCCCCC(=O)OC[C@H](CO[C@@H]1O[C@H](CO)[C@@H](O)[C@H](O)[C@H]1O)OC(=O)CCCCCCC/C=C/C/C=C/C/C=C/CC	KOS	plaque count	50 µg/mL	100%
Nc1nc2c(ncn2COCCO)c(=O)[nH]1	7401H	virus yield	0.9 µg/mL	>99%
COc1ccc(NC(=S)Nc2ccc([N+](=O)[O-])cc2)cc1NC(=S)Nc1ccc([N+](=O)[O-])cc1	-	plaque count	5 µM	0%
Nc1nc(=S)c2[nH]c(-c3cscn3)nc2[nH]1	-	plaque count	100 µg/mL	32%
CCCCCCCCCC(=O)OCC(CO[C@@H]1O[C@H](CO)[C@@H](O)[C@H](O)[C@H]1O)OC(=O)CCCCCCCCC	KOS	plaque count	50 µg/mL	inactive
COc1cccc2c1C(=O)c1c(O)c3c(c(O)c1C2=O)C[C@@](O)(C(C)=O)C[C@@H]3O[C@H]1C[C@H](N(C)C)[C@H](O)[C@H](C)O1	-	virus yield	0.5 µM	0%
CSC(=Nc1ccc([N+](=O)[O-])cc1)Nc1ccc(Oc2ccc(/C=C(/Nc3ccc([N+](=O)[O-])cc3)SC)cc2)cc1	-	plaque count	5 µM	0%
Cc1cn([C@@H]2O[C@H](CO)[C@@H](O)[C@@H]2F)c(=O)[nH]c1=O	F	virus yield	0.1 µM	45%
CCCCC/C=C\C/C=C\CCCCCCCC(=O)OCC(CO[C@@H]1O[C@H](CO)[C@H](O)[C@H](O)[C@H]1O)OC(=O)CCCCCCC/C=C\C/C=C\CCCCC	KOS	plaque count	50 µg/mL	55%
C/C=C/c1cn([C@H]2C[C@H](O)[C@@H](CO)O2)c(=O)[nH]c1=O	C42	plaque count	100 µM	95%
O=C(Nc1ccc(Oc2ccc(NC(=O)c3ccco3)cc2)cc1)c1ccco1	-	plaque count	30 µM	>50%
CCCCCc1nc2n(n1)C(c1ccc(OC)cc1)CC(=O)N2	7401H	plaque count	50 µg/mL	6%
O=c1[nH]c(=O)n([C@@H]2O[C@H](CO)[C@@H](O)[C@@H]2F)cc1I	F	virus yield	1 µM	99.7%

Repeating the final 2 entries:

smiles | strain | method | dose | result
CCCCCc1nc2n(n1)C(c1ccc(OC)cc1)CC(=O)N2 | 7401H | plaque count | 50 µg/mL | 6%
O=c1[nH]c(=O)n([C@@H]2O[C@H](CO)[C@@H](O)[C@@H]2F)cc1I | F | virus yield | 1 µM | 99.7%

Blank or dashed fields: not listed here. Lines come from different laboratories, so protocols vary. Percent inhibition refers to the dose given; in toxicity tests it is the harm to the cells.